Experimental data: paper PMC3227725, “The Cryptosporidium parvum Kinome” (BMC Genomics, 2011)
pIC50: −log10 of the molar value.

Amino acid sequences for entries named in this document (tags omitted). Residues count along the entry.
UniProt A3FQ16, 1-538: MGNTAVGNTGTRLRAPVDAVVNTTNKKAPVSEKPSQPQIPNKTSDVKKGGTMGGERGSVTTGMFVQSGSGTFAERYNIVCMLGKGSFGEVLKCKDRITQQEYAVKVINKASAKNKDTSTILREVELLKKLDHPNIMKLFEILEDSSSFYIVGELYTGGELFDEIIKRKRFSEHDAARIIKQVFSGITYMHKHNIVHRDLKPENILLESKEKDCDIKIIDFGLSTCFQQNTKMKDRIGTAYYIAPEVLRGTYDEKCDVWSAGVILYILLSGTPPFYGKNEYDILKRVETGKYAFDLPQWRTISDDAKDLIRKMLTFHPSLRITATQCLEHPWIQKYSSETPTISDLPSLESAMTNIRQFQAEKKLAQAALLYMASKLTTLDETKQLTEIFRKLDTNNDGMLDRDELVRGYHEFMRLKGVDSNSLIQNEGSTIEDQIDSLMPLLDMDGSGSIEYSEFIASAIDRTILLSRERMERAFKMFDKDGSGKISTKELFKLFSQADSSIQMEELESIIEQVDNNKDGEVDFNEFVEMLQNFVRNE

These compounds were tested against CpCDPK1 (Cryptosporidium parvum, UniProt A3FQ16) (assay: CpCDPK1 inhibition, NADH-coupled ATPase (PK/LDH) assay). Conditions: 10 nM CpCDPK1, 500 μM ATP and 500 μM Syntide2.
Assay type: biochemical
`CC(C)(C)n1nc(-c2cccc3ccccc23)c2c(N)ncnc21` was tested, and the pIC50 was 7.06. Work on `Nc1ncnc2c1c(Cc1cccc3ccccc13)nn2C1CCCC1` yielded a pIC50 of 8.25. `CC(C)(C)n1nc(Cc2ccccc2)c2c(N)ncnc21` gave a pIC50 of 8.47. `CC(C)(C)n1nc(Cc2cccc(I)c2)c2c(N)ncnc21` gave a pIC50 of 8.68. `COc1cccc(Cc2nn(C(C)(C)C)c3ncnc(N)c23)c1` showed a pIC50 of 8.55. Work on `CC(C)(C)n1nc(Cc2cccc3ccccc23)c2c(N)ncnc21` yielded a pIC50 of 9.05. `CC(C)(C)n1nc(CCc2ccccc2)c2c(N)ncnc21` showed a pIC50 of 8.33. Work on `Cc1ccc(Cc2nn(C(C)(C)C)c3ncnc(N)c23)cc1` yielded a pIC50 of 7.02. Work on `COc1ccccc1Cc1nn(C(C)(C)C)c2ncnc(N)c12` yielded a pIC50 of 7.66. `CC(C)(C)n1nc(Cc2cccc(Br)c2)c2c(N)ncnc21` gave a pIC50 of 8.68. Work on `Cc1ccc(-c2nn(C(C)(C)C)c3ncnc(N)c23)cc1` yielded a pIC50 of 8.15. With `CC(C)(C)n1nc(CC2CCCC2)c2c(N)ncnc21` the pIC50 was 6.21. For `Cc1ccccc1Cc1nn(C(C)(C)C)c2ncnc(N)c12`, the pIC50 was 7.82.
